A mixed list of measured activities; the numbers were collected in NIAID ChemDB.

Shared fields: growth or infection tests; agent: Mycobacterium tuberculosis

A number after MIC or MFC names an inhibition level or a share of isolates. Percent inhibition refers to the dose given; in toxicity tests it is the harm to the cells. MIC bound: limit read from a one-dose screen. Neighbouring rows are from separate reports. Blank or dashed fields: not listed here. ECn: concentration that inhibits the pathogen or its effect by n%.

smiles	dose	method	read-out	strain or isolate	result
CC1CN(c2nc3c(cc2F)c(=O)c(C(=O)O)cn3C(C)(C)C)CCN1	-	-	MIC	-	0.78 µg/mL
O=C(O)c1cnccn1	25 µg/mL	-	inhibition	H37Ra	20%
NCCC(O)C(=O)N[C@H]1C[C@@H](N)[C@H](O[C@H]2O[C@H](CN)[C@@H](O)[C@H](O)[C@H]2N)[C@@H](O[C@@H]2O[C@H](CO)[C@H](O)[C@H]2O)[C@@H]1O	-	-	Geometric mean MIC	1 strain	1.6 µg/mL
CO[C@H]1/C=C/O[C@@]2(C)Oc3c(C)c(O)c4c(=O)c(c5oc6cc(N7CCN(C(C)C)CC7)cc(=O)c6nc5c4c3=C2O)NC(=O)/C(C)=C\C=C\[C@H](C)[C@H](O)[C@@H](C)[C@@H](O)[C@@H](C)[C@H](OC(C)=O)[C@@H]1C	-	-	MIC	H37Rv	0.017 µg/mL
C[C@H]1COc2c(N3CCN(C)CC3)c(F)cc3c(=O)c(C(=O)O)cn1c23	-	-	MIC50	18 strains	0.5 µg/mL
C[C@@H]1CCC2C(C)(C)CCC[C@]2(C)[C@@]1(O)CCC1=CC(=O)OC1	-	BACTEC	MIC	H37Rv	100 µg/mL
NCCCN1c2ccccc2Sc2ccccc21	-	resazurin	MIC	STB-960	0.25 µg/mL
O=c1c(Nc2ccccc2)cn(C2C=CC(O)C2)c(=O)n1C1C=CC(O)C1	-	turbidity	MIC99	H37Rv	40 µg/mL
CCOCNc1onc(-c2ccc([N+](=O)[O-])o2)c1C#N	-	-	MIC	-	3 µg/mL
CCCCCc1ccc(-c2cn(CC(O)COc3ccc4c(c3)OC3(CCN(C(=O)OC(C)(C)C)CC3)CC4=O)nn2)cc1	-	agar	MIC	H37Rv	3.13 µg/mL
Cc1cc(-c2ccc(N=Nc3cc(S(=O)(=O)O)c4ccccc4c3N)c(C)c2)ccc1N=Nc1cc(S(=O)(=O)O)c2ccccc2c1N	-	BACTEC	MIC bound	H37Rv	>6.25 µg/mL
COc1ccc(C2SCC(=O)N2NC(=O)c2ncc3cc(C(F)(F)F)ccc3n2)cc1	-	visual reading	MIC	H37Rv	2.21 µM
NNC(=O)/C(NC(=O)c1ccccc1)=C(\N)c1cccc([N+](=O)[O-])c1	12.5 µg/mL	BACTEC	inhibition	H37Rv	43%
O=C(NN1C(=O)CSC1c1ccc([N+](=O)[O-])cc1Br)c1ncc2cc(C(F)(F)F)ccc2n1	-	visual reading	MIC	H37Rv	0.96 µM
CC(=O)O[C@H]1C[C@H]2[C@]3(C)CCC4C(C)(C)CCC[C@]4(C)[C@H]3C[C@@H](O)[C@]2(C)C2OC(=O)C=C21	-	BACTEC	EC50	H37Rv (ATCC 27294)	>12.5 µg/mL
CC(=O)Nc1ccc(S(=O)(=O)NNc2nc(N3CCOCC3)nc(N3CCOCC3)n2)cc1	12.5 µg/mL	BACTEC	inhibition	H37Rv	10%
Cc1c(CN2CCOCC2)cc(-c2ccc(Cl)cc2)n1C1CCCCC1	-	-	MIC	103471	8 µg/mL
CC[C@H]1OC(=O)[C@H](C)[C@@H](O[C@H]2C[C@@](C)(OC)[C@@H](O)[C@H](C)O2)[C@H](C)[C@@H](O[C@@H]2O[C@H](C)C[C@H](N(C)C)[C@H]2O)[C@](C)(OC)C[C@@H](C)C(=O)[C@H](C)[C@@H](O)[C@]1(C)O	-	-	MBC	Kurono	>128 µg/mL
NNC(=O)c1ccncc1	-	resazurin	MIC	XDR-926	8 µg/mL
Cn1c(=O)c(=O)n(C)c2nc3ccccc3nc21	-	BACTEC	MIC bound	H37Rv	>12.5 µg/mL
O=C(NN1C(=O)CSC1c1ccc(I)cc1Br)c1ncc2cc(C(F)(F)F)ccc2n1	-	visual reading	MIC	H37Rv	3.4 µM
Cc1cccc(/C=N/NC(=S)N(C)C)n1.[Cl][Cu][Cl]	-	-	MIC90	V2475	0.78 µM
COc1ccc2c(c1)c1c(C)c3cnccc3c(C)c1n2CCCN1C(=O)c2ccccc2C1=O	-	resazurin	MIC	H37Rv	1.56 µg/mL
NC(=O)c1c(-c2ccc([N+](=O)[O-])o2)noc1N	-	-	MIC	-	10 µg/mL
CO[C@H]1/C=C/O[C@@]2(C)Oc3c(C)c(O)c4c(O)c(c(/C=N/N5CCN(C)CC5)c(O)c4c3C2=O)NC(=O)/C(C)=C\C=C\[C@H](C)[C@H](O)[C@@H](C)[C@@H](O)[C@@H](C)[C@H](OC(C)=O)[C@@H]1C	-	-	MIC90	20 strains	1.25 µg/mL
CO[C@H]1/C=C/O[C@@]2(C)Oc3c(C)c(O)c4c(O)c(c5c(c4c3C2=O)NC2(CCN(CC(C)C)CC2)N=5)=NC(=O)/C(C)=C\C=C\[C@H](C)[C@H](O)[C@@H](C)[C@@H](O)[C@@H](C)[C@H](OC(C)=O)[C@@H]1C	-	-	MIC	Strain 3 (INH-resistant)	0.006 µg/mL
Cc1cc(CN2CCOCC2)c(C)[nH]1	-	-	MIC	103471	>64 µg/mL
COC(=O)N1C=Cc2c(c(C)c3c([nH]c4ccccc43)c2C)C1C	-	resazurin	MIC bound	H37Rv	>6.25 µg/mL
CC(=O)C1CC(c2ccc([N+](=O)[O-])o2)=NO1	-	-	MIC	-	3 µg/mL
C=C(C)/C=C/[C@]12C[C@H](C)[C@H]3CC[C@](C)(N)[C@@H](CC[C@H]1C)[C@@H]32	128 µg/mL	-	inhibition	H37Rv	100%
CCCCc1ccc(Nc2c[nH]c(=O)[nH]c2=O)cc1	-	turbidity	MIC99	H37Rv	10 µg/mL
NCCCCCCCCCCN	-	-	MIC	H37Rv	3.12 µg/mL
CCCCc1cn(CC(O)COc2ccc3c(c2)OC2(CCCCC2)CC3=O)nn1	-	agar	MIC	H37Rv	12.5 µg/mL
O=C(NN1C(=O)CSC1c1ccccc1[N+](=O)[O-])c1ncc2cc(C(F)(F)F)ccc2n1	-	visual reading	MIC	H37Rv	3.08 µM
c1ccc2c(CNc3ccc(N4CCSCC4)cc3)cccc2c1	-	-	MIC	103471	8 µg/mL
CC(C)(C)CC(C)(O)CN(CC(C)(O)CC(C)(C)C)C(=S)S	-	-	MIC	RMP-R	6.3 µg/mL
CCCCOc1ccc(Nc2cn(C3C=CC(O)C3)c(=O)n(C3C=CC(O)C3)c2=O)cc1	-	turbidity	MIC99	H37Rv	20 µg/mL
CCCCCCn1c(C)c(CN2CCOCC2)c(CN2CCOCC2)c1C	-	-	MIC	103471	>64 µg/mL
CCCN1CCN(c2cc(=O)c3nc4c(oc3c2)c2c(=O)c3c(O)c(C)c5c(c34)=C(O)[C@@](C)(O/C=C/[C@H](OC)[C@@H](C)[C@@H](OC(C)=O)[C@H](C)[C@H](O)[C@H](C)[C@@H](O)[C@@H](C)/C=C/C=C(/C)C(=O)N2)O5)CC1	-	-	MIC90	20 strains	0.07 µg/mL
CNC(=O)[C@@H](C)[C@H]1C(=O)\C(=C(O)/C=C/C(C)=C/[C@@H](C)[C@@H]2O[C@]3(C)O[C@@H](CC[C@]34CO4)[C@@H]2C)C(=O)N1[C@@H]1CC[C@H](O)[C@H](C)O1	-	resazurin	MIC90	H37Rv	>200 µg/mL
CCOC(=O)c1c(-c2ccc([N+](=O)[O-])o2)noc1N	-	-	MIC	-	30 µg/mL
[O-][n+]1c2ccccc2nc2cc(Cl)ccc21	12.5 µg/mL	BACTEC	inhibition	H37Rv	98%
COc1ccc(-c2cn(CC(O)COc3ccc4c(c3)OC3(CCN(C(=O)OC(C)(C)C)CC3)CC4=O)nn2)cc1	-	agar	MIC	H37Rv	25 µg/mL
O=C(NN1C(=O)CSC1c1ccccc1Br)c1ncc2cc(C(F)(F)F)ccc2n1	-	visual reading	MIC	H37Rv	2.32 µM
N#CNC(N)=NC1=CC(=O)C(=O)c2ccccc21	-	resazurin	MIC bound	H37Rv	>6.25 µg/mL
O=C(Cc1ccc(-c2ccc(C(F)(F)F)cc2)cc1)N[C@@H]1COc2nc([N+](=O)[O-])cn2C1	-	resazurin	MIC	H37Rv	1 µM
C=C[C@](C)(O)CC[C@H]1C(=C)CC[C@H]2C(C)(C)CCC[C@]12C	6.25 µg/mL	resazurin	inhibition	H37Rv	29%
Cc1c(CN2CCOCC2)c(CN2CCOCC2)c(C)n1Cc1ccccc1	-	-	MIC	103471	>64 µg/mL
CC(=O)Nc1nc(=O)n(CC(=O)c2cccs2)cc1F	6.25 µg/mL	resazurin	inhibition	H37Rv	34%
C[C@H]1COC2(CCN(c3nc(=O)c4cc(C(F)(F)F)cc([N+](=O)[O-])c4s3)CC2)O1	-	resazurin / fluorescence	MIC	H37Rv	<0.02 µg/mL
CSC(=S)N/N=C(/C)c1ccco1	-	-	MIC	PZA-R	0.4 µg/mL
C/C(=C\COC1CCCCO1)CC/C=C(\C)CCC1CCCCC1	6.25 µg/mL	resazurin	inhibition	H37Rv	77%
CCN(CC)CC.Nc1ncnc2c1ncn2[C@@H]1OC(COS(=O)(=O)NC(=O)CCCCC2SCC3NC(=O)NC32)[C@@H](O)[C@H]1O	-	broth dilution	MIC	H37Rv	1.56 µM
Cc1ccc(NCCNCC(C)(C)O)c2c(=O)c3ccc(Cl)cc3sc12	-	BACTEC	MIC	H37Rv	0.8 µg/mL
c1ccc(C2=NCCN2)c(NCc2cccc3ccccc23)c1	-	-	MIC	103471	2 µg/mL
C=C1CCCC(C)(C)[C@H]1CC/C(C)=C/CC/C(C)=C/CO	6.25 µg/mL	resazurin	inhibition	H37Rv	61%
CCOC(=O)C1=CC(C)(C(=O)OCC)Nc2c(nc(N)[nH]c2=O)N1	-	resazurin	MIC bound	H37Rv	>6.25 µg/mL
CC(=O)c1ccccc1C1SCC(=O)N1NC(=O)c1ncc2cc(C(F)(F)F)ccc2n1	-	visual reading	MIC	H37Rv	3.07 µM
CC1CN(c2cc3c(cc2F)c(=O)c(C(=O)O)cn3C(C)(C)C)CCN1	-	-	MIC	-	0.39 µg/mL
CC[C@@H]1CC[C@H]2[C@@H]3N(C)c4ccccc4[C@]34C[C@@H](C[C@H]4O)N2[C@H]1O	-	BACTEC	MIC	H37Rv	≥12.8 µg/mL
O=C(Nc1cccc([N+](=O)[O-])c1)Nc1ccc(Cl)c(C(F)(F)F)c1	-	broth dilution / turbidity	MIC90	-	0.3 µg/mL
Cc1cc2c(=O)c3ccccc3oc2c(C#N)c1C	-	BACTEC	MIC bound	H37Rv	>12.5 µg/mL
C[C@H](O)[C@H]1C(=O)N2C(C(=O)O)=C(S[C@@H]3CN[C@H](C(=O)N(C)C)C3)[C@H](C)[C@H]12	-	-	MIC	-	0.83 µM
O=C1CC2(CCCCC2)Oc2cc(OCC(O)Cn3cc(-c4ccccc4)nn3)ccc21	-	agar	MIC	H37Rv	6.25 µg/mL
Cc1cc(=O)oc2ccc3c(=O)ccoc3c12	12.5 µg/mL	BACTEC	inhibition	H37Rv	15%
Cc1[nH]c(-c2ccc(Cl)cc2)c(CN2CCN(C)CC2)c1CN1CCN(C)CC1	-	-	MIC	103471	>64 µg/mL
C[C@@H](NC(=O)Nc1cccc(C(=O)Nc2cc(C(C)(C)C)ccc2C(=O)O)n1)c1ccccc1	6.25 µg/mL	resazurin	inhibition	H37Rv	6%
C[C@@H]1CN(c2nc3c(cc2F)c(=O)c(C(=O)O)cn3C(C)(C)C)C[C@H](C)N1	-	-	MIC	-	0.78 µg/mL
NCCCCCCCCCCCN	-	-	MIC	H37Rv	3.12 µg/mL
CC(=O)c1c(-c2ccc([N+](=O)[O-])o2)noc1C	-	-	MIC	-	30 µg/mL
CC(=O)N1C(=O)C2(Nc3cccnc3N2)c2ccccc21	12.8 µg/mL	BACTEC	inhibition	H37Rv	21%
CC[C@H](C)[C@@H](NC(=O)[C@@H](CCC(=O)O)NC(=O)[C@H](Cc1cnc[nH]1)NC(=O)[C@H](CC(C)C)NC(=O)[C@H](N)Cc1ccccc1)C(=O)N[C@H]1CCCCNC1=O	-	broth dilution	MIC	H37Rv	12.5 µg/mL
O=C(OCC1OC(C2N(c3ccccc3)CCN2c2ccccc2)C(OC(=O)c2ccccc2)C1OC(=O)c1ccccc1)c1ccccc1	12.5 µg/mL	BACTEC	inhibition	H37Rv	24%
C=C1CCCC(C)(C)[C@H]1CC/C(C)=C/CC/C(C)=C/COC1CCCCO1	6.25 µg/mL	resazurin	inhibition	H37Rv	27%
C[C@H]1NCc2cc(-c3ccc4c(=O)c(C(=O)O)cn(C5CC5)c4c3OC(F)F)ccc21	-	-	MIC50	10 strains	2 µg/mL
CC(C)=CCC/C(C)=C/COC1CCCCO1	6.25 µg/mL	resazurin	inhibition	H37Rv	8%
N#Cc1c(Nc2ccccc2)[n+]([O-])c2ccc(Cl)cc2[n+]1[O-]	-	-	EC50	H37Rv	<12.5 µg/mL
CO[C@H]1/C=C/O[C@@]2(C)Oc3c(C)c(O)c4c(O)c(c(/C=N/N5CCN(C)CC5)c(O)c4c3C2=O)NC(=O)/C(C)=C\C=C\[C@H](C)[C@H](O)[C@@H](C)[C@@H](O)[C@@H](C)[C@H](OC(C)=O)[C@@H]1C	-	-	MIC	Erdman	0.02 µg/mL
CC(C)=CCC/C(C)=C/CC/C(C)=C/CO	-	resazurin	MIC	H37Rv	8 µg/mL

Again, the opening 6 rows:

{"smiles": "CC1CN(c2nc3c(cc2F)c(=O)c(C(=O)O)cn3C(C)(C)C)CCN1", "read-out": "MIC", "result": "0.78 µg/mL"}
{"smiles": "O=C(O)c1cnccn1", "dose": "25 µg/mL", "read-out": "inhibition", "strain or isolate": "H37Ra", "result": "20%"}
{"smiles": "NCCC(O)C(=O)N[C@H]1C[C@@H](N)[C@H](O[C@H]2O[C@H](CN)[C@@H](O)[C@H](O)[C@H]2N)[C@@H](O[C@@H]2O[C@H](CO)[C@H](O)[C@H]2O)[C@@H]1O", "read-out": "Geometric mean MIC", "strain or isolate": "1 strain", "result": "1.6 µg/mL"}
{"smiles": "CO[C@H]1/C=C/O[C@@]2(C)Oc3c(C)c(O)c4c(=O)c(c5oc6cc(N7CCN(C(C)C)CC7)cc(=O)c6nc5c4c3=C2O)NC(=O)/C(C)=C\\C=C\\[C@H](C)[C@H](O)[C@@H](C)[C@@H](O)[C@@H](C)[C@H](OC(C)=O)[C@@H]1C", "read-out": "MIC", "strain or isolate": "H37Rv", "result": "0.017 µg/mL"}
{"smiles": "C[C@H]1COc2c(N3CCN(C)CC3)c(F)cc3c(=O)c(C(=O)O)cn1c23", "read-out": "MIC50", "strain or isolate": "18 strains", "result": "0.5 µg/mL"}
{"smiles": "C[C@@H]1CCC2C(C)(C)CCC[C@]2(C)[C@@]1(O)CCC1=CC(=O)OC1", "method": "BACTEC", "read-out": "MIC", "strain or isolate": "H37Rv", "result": "100 µg/mL"}